Laboratory results as given in US11370770B2, “3-arylindazoles as selective MEK4 inhibitors” (priority 2019, dated 2022).

Tested on: PC3M cells
Assay: Cell viability, trypan blue exclusion
Format: cell-based
Conditions: PC3M cells treated for 3 days

Structure (SMILES)	toxicity, proliferation and viability
Fc1ccc2c(-c3ccc4c(c3)OCO4)n[nH]c2c1 [Compound 6ee, 3-(2H-1,3-benzodioxol-5-yl)-6-fluoro-2H-indazole]	less toxicity
O=C(O)c1ccc(-c2n[nH]c3cc(F)ccc23)cc1 [Compound 6ff, 4-(6-fluoro-2H-indazol-3-yl)benzoic Acid]	less toxicity
